Anti-infective test results gathered from many reports (values: NIAID ChemDB through PubChem).

All rows: enzyme or target tests

Two numbers with a dash give a range or band.

CC(C)N(C(=O)c1ccc(Cl)cc1Cl)c1cc(C2=CCN(C(=O)OCc3ccccc3)CC2)sc1C(=O)O ; read-out: IC50 ; target: NS3 ATPase ; agent: Hepatitis C virus ; result: <5 µM
C=C[C@H]1CC1(NC(=O)[C@@H]1C[C@@H](Oc2ccnc3ccccc23)CN1C(=O)[C@@H](NC(=O)OC(C)(C)C)[C@@H](C)OC)C(=O)O ; read-out: IC50 ; target: HCV NS3/NS4A protease ; agent: Hepatitis C virus ; result: 2.6 µM
CSCC[C@H](NC(=O)CCC(=O)O)C(=O)N[C@@H](CCC(=O)O)C(=O)N[C@@H](CCC(=O)O)C(=O)N[C@@H](CS)C(=O)O ; read-out: IC50 ; target: HCV NS3 protease ; agent: Hepatitis C virus ; result: 77 µM
O=C(O)c1sc(-c2ccccc2)cc1N(Cc1ccc(F)cc1F)C(=O)C1CCC1 ; read-out: IC50 ; target: NS3 ATPase ; agent: Hepatitis C virus ; result: <5 µM
C=CC(=O)NCC(=O)N1C[C@H](Oc2nccc3ccc(Br)cc23)C[C@H]1C(=O)N[C@]1(C(=O)NS(=O)(=O)C2CC2)C[C@H]1C=C ; read-out: IC50 ; strain or isolate: 1b D168A ; target: Nonstructural protein 3/4A ; agent: Hepatitis C virus ; read by: FRET ; result: 0.755 µM
NCc1cccnc1 ; read-out: IC50 ; target: Nonstructural protein 3 NTPase/helicase ; agent: Hepatitis C virus ; result: >25 µg/mL
O=C(Nc1ccc2cn[nH]c2c1)c1cc(C2CCNCCN2)c(F)cc1F ; read-out: IC50 ; target: Nonstructural protein 5B ; agent: Hepatitis C virus ; result: 1–10 µg/mL
CC[C@H](NC(=O)[C@@H](NC(=O)[C@H](C(C)C)N(C)C(=O)[C@H](CC(=O)O)NC(=O)[C@@H](N)CCC(=O)O)C(C)C)C(=O)N[C@@H](CS)C(=O)O ; read-out: IC50 ; target: NS3 protease ; agent: Hepatitis C virus ; result: 1.3 µM
CC(=O)N[C@@H](CC(=O)O)C(=O)N[C@H](CC(C(=O)O)C(=O)O)C(=O)N[C@H](C(=O)N[C@H](C(=O)N[C@@H](CC1CCCCC1)C(=O)N[C@@H](CS)C(=O)C(=O)O)C(C)(C)C)C(c1ccccc1)c1ccccc1 ; read-out: Ki ; target: NS3/NS4A serine protease ; agent: Hepatitis C virus ; result: 0.00006 µM
CC(C)N(C(=O)c1ccc(Cl)cc1Cl)c1cc(C2CCNCC2)sc1C(=O)O.O=C(O)C(F)(F)F ; read-out: IC50 ; target: NS3 ATPase ; agent: Hepatitis C virus ; result: >20 µM
C=C[C@H]1CC1(NC(=O)[C@@H]1C[C@@H](Oc2cc(-c3csc(N)n3)nc3ccccc23)CN1C(=O)[C@@H](NC(=O)OC(C)(C)C)C(C)(C)C)C(=O)O ; read-out: IC50 ; target: HCV NS3/NS4A protease ; agent: Hepatitis C virus ; result: 0.087 µM
Cc1cc(S(=O)(=O)Nc2cc(-c3ccc(CC(C)C)cc3)sc2C(=O)O)c(C)cc1Cl ; read-out: IC50 ; target: NS3 ATPase ; agent: Hepatitis C virus ; result: 5–20 µM
CSCC[C@H](NC(=O)[C@H](CCC(=O)O)NC(=O)[C@@H](N)CC(=O)O)C(=O)N[C@@H](CCC(=O)O)C(=O)N[C@@H](CCC(=O)O)C(=O)N[C@@H](CS)C(=O)O ; read-out: IC50 ; target: NS3 protease ; agent: Hepatitis C virus ; result: 1 µM
CC(=O)N[C@@H](CC(=O)O)C(=O)N[C@H](CC(=O)O)C(=O)N[C@H](C(=O)N[C@@H](CCC(=O)O)C(=O)N[C@@H](CC1CCCCC1)C(=O)N[C@@H](CS)C(=O)C(=O)O)C(c1ccccc1)c1ccccc1 ; read-out: Ki ; target: NS3/NS4A serine protease ; agent: Hepatitis C virus ; result: 12.7 µM
O=C(Nc1ccc2[nH]ncc2c1)c1cc(N2CCC(O)CC2)c(F)cc1F ; read-out: inhibition ; target: Reverse transcriptase ; agent: Hepatitis B virus ; dose: 1 µg/mL ; result: 69%
O=C(NC1CCCCC1)N[C@H](C(=O)N1C[C@H](OCc2cccc3ccccc23)C[C@H]1C(=O)NC1(C(=O)O)CC1)C1CCCCC1 ; read-out: IC50 ; target: HCV NS3/NS4A protease ; agent: Hepatitis C virus ; result: 47 µM
CC(C)[C@H](NC(=O)[C@H](CC(=O)O)NC(=O)[C@@H](N)CCC(=O)O)C(=O)N[C@H](C(=O)NCC(=O)N[C@@H](CS)C(=O)O)C(C)C ; read-out: IC50 ; target: NS3 protease ; agent: Hepatitis C virus ; result: 20 µM
CC(=O)N[C@@H](CC(=O)O)C(=O)N[C@@H](CCC(=O)O)C(=O)N[C@@H](CC(C)C)C(=O)N[C@@H](CCC(=O)O)C(=O)N[C@@H](CC1CCCCC1)C(=O)N[C@@H](CS)C(=O)O ; read-out: IC50 ; target: HCV NS3 protease ; agent: Hepatitis C virus ; result: 0.118 µM
CC(=O)N[C@@H](CC(=O)O)C(=O)N[C@H](CC(C(=O)O)C(=O)O)C(=O)N[C@H](C(=O)N[C@@H](CCC(=O)O)C(=O)N[C@@H](CC1CCCCC1)C(=O)N[C@@H](CS)C(=O)C(=O)O)c1cccc2ccccc12 ; read-out: Ki ; target: NS3/NS4A serine protease ; agent: Hepatitis C virus ; result: 0.00005 µM
C=C[C@H]1CC1(NC(=O)[C@@H]1C[C@@H](Oc2cccc3cnccc23)CN1C(=O)[C@@H](NC(=O)OC(C)(C)C)C1CCCCC1)C(=O)O ; read-out: IC50 ; target: HCV NS3/NS4A protease ; agent: Hepatitis C virus ; result: 2.5 µM
CC(=O)N[C@@H](CC(=O)O)C(=O)N[C@@H](CCC(=O)O)C(=O)N[C@@H](Cc1ccccc1)C(=O)N[C@@H](CCC(=O)O)C(=O)N[C@@H](CC1CCCCC1)C(=O)N[C@@H](CS)C(=O)O ; read-out: IC50 ; target: HCV NS3 protease ; agent: Hepatitis C virus ; result: 0.42 µM
CCc1cc(Cl)ccc1C(=O)N(Cc1cccc(Br)c1)[C@@H](Cc1ccccc1)C(=O)O ; read-out: IC50 ; target: RNA-dependent RNA polymerase ; agent: Hepatitis C virus ; result: <5 µM
O=C(CCCCC(=O)Nc1ccc(-c2nc3ccccc3[nH]2)cc1)Nc1ccc(-c2nc3ccccc3[nH]2)cc1 ; read-out: IC50 ; target: Nonstructural protein 3 NTPase/helicase ; agent: Hepatitis C virus ; result: <25 µg/mL
CC(=O)N[C@@H](CC(=O)O)C(=O)N[C@@H](CC(C(=O)O)C(=O)O)C(=O)N[C@@H](CC(C)C)C(=O)N[C@@H](CCC(=O)O)C(=O)N[C@@H](CC1CCCCC1)C(=O)N[C@@H](CS)C(=O)O ; read-out: IC50 ; target: HCV NS3 protease ; agent: Hepatitis C virus ; result: 0.055 µM
NCc1ccco1 ; read-out: IC50 ; target: Nonstructural protein 3 NTPase/helicase ; agent: Hepatitis C virus ; result: >25 µg/mL
C=Cc1cc(Cl)ccc1C(=O)N(Cc1cccc(Br)c1)[C@@H](Cc1ccccc1)C(=O)O ; read-out: IC50 ; target: RNA-dependent RNA polymerase ; agent: Hepatitis C virus ; result: <5 µM
CSCC[C@H](NC(=O)[C@H](CCC(=O)O)NC(=O)[C@@H](N)CC(=O)O)C(=O)N[C@@H](CCC(=O)O)C(=O)N[C@@H](CCC(=O)O)C(=O)NC1(C(=O)O)CCCC1 ; read-out: IC50 ; target: NS3 protease ; agent: Hepatitis C virus ; result: 9 µM
C=C[C@H]1CC1(NC(=O)[C@@H]1C[C@@H](Oc2nc(-c3ccccc3)nc3ccccc23)CN1C(=O)[C@@H](Nc1ccc(C(=O)O)cc1)C1CCCCC1)C(=O)O ; read-out: IC50 ; target: HCV NS3/NS4A protease ; agent: Hepatitis C virus ; result: 0.65 µM
CC(=O)N[C@@H](CC(=O)O)C(=O)N[C@H](Cc1ccc(O)cc1)C(=O)N[C@H](C(=O)N[C@@H](CCC(=O)O)C(=O)N[C@@H](CC1CCCCC1)C(=O)N[C@@H](CS)C(=O)C(=O)O)C(c1ccccc1)c1ccccc1 ; read-out: Ki ; target: NS3/NS4A serine protease ; agent: Hepatitis C virus ; result: 65 µM
O=C(Nc1ccc2[nH]ncc2c1)c1cc(NCc2ccccn2)c(F)cc1F ; read-out: IC50 ; target: Reverse transcriptase ; agent: Hepatitis B virus ; result: 0.1–1 µg/mL
O=C(O)[C@H](Cc1cn(Cc2ccccc2)cn1)N(Cc1cccc(Br)c1)C(=O)c1ccc(Cl)cc1Cl ; read-out: IC50 ; target: RNA-dependent RNA polymerase ; agent: Hepatitis C virus ; result: 5–20 µM
CC(C)N(C(=O)C1CC[C@@H](C)C[C@@H]1C)c1cc(-c2ccccc2)sc1C(=O)O ; read-out: IC50 ; target: NS3 ATPase ; agent: Hepatitis C virus ; result: <5 µM
CC(=O)N[C@@H](CC(=O)O)C(=O)N[C@H](CC(C(=O)O)C(=O)O)C(=O)N[C@H](C(=O)N[C@@H](CCC(=O)O)C(=O)N[C@@H](CCC(=O)O)C(=O)N[C@@H](CS)C(=O)C(=O)O)C(c1ccccc1)c1ccccc1 ; read-out: Ki ; target: NS3/NS4A serine protease ; agent: Hepatitis C virus ; result: 0.00006 µM
O=C(Nc1ccc2cn[nH]c2c1)c1cc(N2CCC(O)CC2)c(F)cc1F ; read-out: inhibition ; target: Reverse transcriptase ; agent: Hepatitis B virus ; dose: 0.1 µg/mL ; result: 38%
O=C(NCCCCNC(=O)Nc1ccc(-c2nc3ccccc3[nH]2)cc1)Nc1ccc(-c2nc3ccccc3[nH]2)cc1 ; read-out: IC50 ; target: Nonstructural protein 3 NTPase/helicase ; agent: Hepatitis C virus ; result: >25 µg/mL
O=C(Nc1ccc2cn[nH]c2c1)c1cc(N2CCN(CCO)CC2)c(F)cc1F ; read-out: inhibition ; target: Reverse transcriptase ; agent: Hepatitis B virus ; dose: 0.01 µg/mL ; result: 39%
CCc1ccc(-c2cc(N(C(=O)c3ccc(C)cc3O)C(C)C)c(C(=O)O)s2)cc1 ; read-out: IC50 ; target: NS3 ATPase ; agent: Hepatitis C virus ; result: <5 µM
CC1=NCCN1c1cc(C(=O)Nc2ccc3[nH]ncc3c2)c(F)cc1F ; read-out: inhibition ; target: Nonstructural protein 5B ; agent: Hepatitis C virus ; dose: 10 µg/mL ; result: 55%
CSCC[C@H](NC(=O)[C@H](CCC(=O)O)NC(C)=O)C(=O)N[C@@H](CCC(=O)O)C(=O)N[C@@H](CCC(=O)O)C(=O)N[C@@H](CS)C(=O)O ; read-out: IC50 ; target: HCV NS3 protease ; agent: Hepatitis C virus ; result: 21 µM
O=C(CCCCCCC(=O)Nc1ccc(-c2nc3ccccc3[nH]2)cc1)Nc1ccc(-c2nc3ccccc3[nH]2)cc1 ; read-out: IC50 ; target: Nonstructural protein 3 NTPase/helicase ; agent: Hepatitis C virus ; result: <25 µg/mL
CC[C@H](C)[C@H](NC(=O)[C@H](CCC(=O)O)NC(=O)[C@@H](N)CC(=O)O)C(=O)N[C@@H](CCC(=O)O)C(=O)N[C@@H](CC1CCCCC1)C(=O)N[C@@H](CS)C(=O)O ; read-out: IC50 ; target: NS3 protease ; agent: Hepatitis C virus ; result: 0.12 µM
O=C(Nc1ccc2cn[nH]c2c1)c1cc(NCc2ccccn2)c(F)cc1F ; read-out: IC50 ; target: Reverse transcriptase ; agent: Hepatitis B virus ; result: 0.1–1 µg/mL
Cc1ccc(C(=O)N(C)c2cc(-c3ccccc3)sc2C(=O)O)c(C)c1 ; read-out: IC50 ; target: NS3 ATPase ; agent: Hepatitis C virus ; result: <5 µM
Nc1nccs1 ; read-out: IC50 ; target: Nonstructural protein 3 NTPase/helicase ; agent: Hepatitis C virus ; result: >25 µg/mL
O=C(O)[C@H](Cc1ccccc1)N(Cc1ccc(-c2nccs2)cc1)C(=O)c1ccc(Cl)cc1Cl ; read-out: IC50 ; target: RNA-dependent RNA polymerase ; agent: Hepatitis C virus ; result: <5 µM
O=C(Nc1ccc2[nH]ncc2c1)c1cc(N2CCNCC2)c(F)cc1F ; read-out: inhibition ; target: Nonstructural protein 5B ; agent: Hepatitis C virus ; dose: 10 µg/mL ; result: 69%
C[C@@]1(O)[C@H](O)[C@@H](COP(=O)(O)OP(=O)(O)OP(=O)(O)O)O[C@@]1(C#N)c1ccc2c(N)ncnn12 ; read-out: fold resistance ; strain or isolate: 2a JFH-1 ; target: Nonstructural protein 5B ; agent: Hepatitis C virus ; read by: radiometric ; mutations: M289L ; result: 2.8
C=C[C@H]1CC1(NC(=O)[C@@H]1C[C@@H](Oc2nc(-c3ccccc3)nc3ccccc23)CN1C(=O)[C@@H](Nc1ccc(C(=O)OC)cc1)C1CCCCC1)C(=O)O ; read-out: IC50 ; target: HCV NS3/NS4A protease ; agent: Hepatitis C virus ; result: 1.2 µM
Cc1cc(S(=O)(=O)Nc2cc(-c3ccsc3)sc2C(=O)O)c(C)cc1Cl ; read-out: IC50 ; target: NS3 ATPase ; agent: Hepatitis C virus ; result: <5 µM
CC[C@H](NC(=O)[C@@H](NC(=O)[C@@H](NC(=O)[C@H](CC(=O)O)NC(=O)[C@@H](N)CCC(=O)O)C(C)C)C(C)C)C(=O)N[C@@H](CS)C(=O)O ; read-out: IC50 ; target: NS3 protease ; agent: Hepatitis C virus ; result: 2.8 µM

Again, the opening 3 rows:

| structure | read-out | strain or isolate | target | agent | read by | dose | mutations | result |
|---|---|---|---|---|---|---|---|---|
| CC(C)N(C(=O)c1ccc(Cl)cc1Cl)c1cc(C2=CCN(C(=O)OCc3ccccc3)CC2)sc1C(=O)O | IC50 |  | NS3 ATPase | Hepatitis C virus |  |  |  | <5 µM |
| C=C[C@H]1CC1(NC(=O)[C@@H]1C[C@@H](Oc2ccnc3ccccc23)CN1C(=O)[C@@H](NC(=O)OC(C)(C)C)[C@@H](C)OC)C(=O)O | IC50 |  | HCV NS3/NS4A protease | Hepatitis C virus |  |  |  | 2.6 µM |
| CSCC[C@H](NC(=O)CCC(=O)O)C(=O)N[C@@H](CCC(=O)O)C(=O)N[C@@H](CCC(=O)O)C(=O)N[C@@H](CS)C(=O)O | IC50 |  | HCV NS3 protease | Hepatitis C virus |  |  |  | 77 µM |

Inhibition is in % at the dose shown (toxicity tests: loss of growth or viability). Fold resistance has wild type as its base. Blank or dashed fields: not listed here. Rows are shuffled and stem from different studies. ICn is the concentration giving n% inhibition.